Data as given in ChEMBL document CHEMBL3407459, “Synthesis and antimicrobial activity of novel structural hybrids of benzofuroxan and benzothiazole derivatives” (2015).
Calls of active or inactive are those of the source. The rule behind the calls is not given here.

How the values were obtained:
Escherichia coli [1] = test: Antibacterial activity against Escherichia coli MG1655 harboring pSoxS-lux assessed as increase of intracellular superoxide anion radical and nitrogen oxide level at <10^-3 to 10^-4 M measured for 2 hrs by luminometric analysis; conditions: K-12 substr. MG1655
Escherichia coli [2] = test: Antibacterial activity against Escherichia coli MG1655 harboring pIbpA-lux assessed as protein damage at <10^-3 to 10^-4 M measured for 2 hrs by luminometric analysis; conditions: K-12 substr. MG1655
Vibrio sp. [3] = test: Antibacterial activity against Vibrio aqamarinus VKPM B-11245 at <10^-3 to 10^-4 M measured for 2 hrs by luminometric analysis
Escherichia coli [4] = test: Antibacterial activity against Escherichia coli MG1655 harboring pXen7 at <10^-3 to 10^-4 M measured for 2 hrs by luminometric analysis; conditions: K-12 substr. MG1655
Escherichia coli [5] = test: Antibacterial activity against Escherichia coli MG1655 harboring pColD-lux assessed as DNA damage at <10^-3 to 10^-4 M measured for 2 hrs by luminometric analysis in absence of S9 fraction; conditions: K-12 substr. MG1655
[6] = Activation of quorum sensing system luxR in Escherichia coli MG1655 harboring pVFR1-lux at <10^-3 to 10^-4 M measured for 2 hrs by luminometric analysis; conditions: Escherichia coli str. K-12 substr. MG1655
Escherichia coli [7] = test: Antibacterial activity against Escherichia coli MG1655 harboring pColD-lux assessed as DNA damage at <10^-3 to 10^-4 M measured for 2 hrs by luminometric analysis in presence of S9 fraction; conditions: K-12 substr. MG1655
Escherichia coli [8] = test: Antibacterial activity against Escherichia coli MG1655 harboring pGrpE-lux assessed as protein damage at <10^-3 to 10^-4 M measured for 2 hrs by luminometric analysis; conditions: K-12 substr. MG1655
Escherichia coli [9] = test: Antibacterial activity against Escherichia coli MG1655 harboring pRecA-lux assessed as DNA damage at <10^-3 to 10^-4 M measured for 2 hrs by luminometric analysis in absence of S9 fraction; conditions: K-12 substr. MG1655
Escherichia coli [10] = test: Antibacterial activity against Escherichia coli MG1655 harboring pRecA-lux assessed as DNA damage at <10^-3 to 10^-4 M measured for 2 hrs by luminometric analysis in presence of S9 fraction; conditions: K-12 substr. MG1655
Escherichia coli [11] = test: Antibacterial activity against Escherichia coli MG1655 harboring pKatG-lux assessed as production of hydroperoxides at <10^-3 to 10^-4 M measured for 2 hrs by luminometric analysis; conditions: K-12 substr. MG1655
Vibrio sp. [12] = test: Antibacterial activity against Vibrio aqamarinus VKPM B-11245 at 10^-3 to 10^-7 M measured for 2 hrs by luminometric analysis

Compound	Activity (Escherichia coli [1])	Activity (Escherichia coli [2])	Activity (Vibrio sp. [3])	Activity (Escherichia coli [4])	Activity (Escherichia coli [5])	Activity [6]	Activity (Escherichia coli [7])	Activity (Escherichia coli [8])	Activity (Escherichia coli [9])	Activity (Escherichia coli [10])	Activity (Escherichia coli [11])	Activity (Vibrio sp. [12])
O=[N+]([O-])c1ccc2sc(Nc3c([N+](=O)[O-])cc([N+](=O)[O-])c4no[n+]([O-])c34)nc2c1	inactive	inactive	inactive	inactive	inactive	inactive	inactive	inactive	inactive	inactive	inactive	–
O=[N+]([O-])c1cc([N+](=O)[O-])c2no[n+]([O-])c2c1Nc1nc2ccccc2s1	inactive	inactive	inactive	inactive	inactive	inactive	inactive	inactive	inactive	inactive	inactive	–
CCOc1ccc2nc(Nc3c([N+](=O)[O-])cc([N+](=O)[O-])c4no[n+]([O-])c34)sc2c1	inactive	inactive	inactive	inactive	inactive	inactive	inactive	inactive	inactive	inactive	inactive	–
O=[N+]([O-])c1cc([N+](=O)[O-])c2no[n+]([O-])c2c1/N=c1\sc2cc(Cl)ccc2n1-c1c([N+](=O)[O-])cc([N+](=O)[O-])c2no[n+]([O-])c12	inactive	inactive	inactive	inactive	inactive	inactive	inactive	inactive	inactive	inactive	inactive	–
COc1cccc2sc(Nc3c([N+](=O)[O-])cc([N+](=O)[O-])c4no[n+]([O-])c34)nc12	inactive	inactive	–	inactive	inactive	inactive	inactive	inactive	inactive	inactive	–	Active
Cc1ccc2nc(Nc3c([N+](=O)[O-])cc([N+](=O)[O-])c4no[n+]([O-])c34)sc2c1	inactive	inactive	inactive	inactive	inactive	inactive	inactive	inactive	inactive	inactive	inactive	–
